Data on one molecule can be found in US20220185781A1, “BULLEYACONITINE D CRYSTAL AND PREPARATION METHOD THEREFOR AND APPLICATION THEREOF” (priority 2019, published 2022).

The nature of the series: Solid-state stability test of crystalline form D (XRPD and HPLC after storage).

Each structure is given as a SMILES string.

Take `CCN1C[C@]2(COC)CC[C@@H](OC)[C@]34C5C[C@]6(O)[C@@H](OC)C[C@@](OC(C)=O)(C5[C@H]6OC(=O)c5ccc(OC)cc5)[C@H](C13)[C@H](OC)[C@H]24` (some centres unmarked): the “HPLC purity Area %” value is given as 99.29 Area % (25° C./60% RH, open, 1 month); 99.81 Area % (25° C./60% RH, open, 1 week); 99.74 Area % (40° C./75% RH, open, 1 month); 99.34 Area % (40° C./75% RH, open, 1 week); 99.56 Area % (80° C., 24 hours, sealed).
